Pooled drug test results. Numbers come from NIAID ChemDB, via PubChem.

Shared fields: whole-cell or culture tests; agent: HIV-1

ECn is the concentration giving n% inhibition of infection, replication or growth. An empty or dashed field is not shown. Neighbouring rows are from separate reports.

compound,cell line,mutations,strain,method,read-out,result
Nc1ncn([C@H]2CC[C@H](CO)O2)c(=O)n1,MT-4,,RF,MTT,EC50,>471 µM
COc1ccc(S(=O)(=O)N(CC[C@@H](O)CN(CC(C)C)S(=O)(=O)c2ccc(OC)cc2)CC2CCCC2)cc1,CEM,,IIIB,p24,EC50,<1 µM
C=C1CC[C@@H]2[C@](C)(CO)[C@H](O)CC[C@@]2(C)[C@@H]1CC(OC(=O)/C=C/c1ccc2c(c1)OCO2)C1CCOC1=O,C8166,,,cytopathic effect,EC50,1.505 µM
Nc1ccn([C@@H]2CC[C@H](CO)O2)c(=O)n1,C8166,,RF,p24,EC50,23.6 µM
CCO[C@H]1OC[C@H](Cc2ccc(O)c(OC)c2)[C@H]1Cc1ccc(O)c(OC)c1,,,,cytopathic effect,EC50,2.09 µg/mL
CCCCCCCCCCCCCCCCNc1ccn([C@H]2C[C@H](OP(=O)(O)OC[C@@H]3CC[C@H](n4ccc(N)nc4=O)O3)[C@@H](CO)O2)c(=O)n1,CEM + CEM-SS,,,cytopathic effect / XTT,EC50,1.39 µM
COc1ccc(S(=O)(=O)N(CC(C)C)C[C@@H](O)CCN2CCCC[C@H]2C(=O)NC(C)(C)C)cc1,CEM,,IIIB,p24,EC50,<1 µM
N#C[C@]1(CO)O[C@@H](n2cnc3c(=O)[nH]c(N)nc32)C[C@@H]1O,MT-4,,NL4-3,absorbance,EC50,0.0004 µM
[N-]=[N+]=N[C@H]1C[C@H](CO)S[C@@H]1n1cnc2c(N)ncnc21,MT-4,,,,EC50,>100 µM
Cc1cn([C@@H]2O[C@H](COC(=O)C(C)(C)C)[C@@H](O)[C@H]2OC(=O)C(C)(C)C)c(=O)n(CC(=O)O)c1=O,CEM,,IIIB,syncytia,EC50,80 µM
C=C(C)[C@]1(O)C[C@@H](C)[C@@]2(O)[C@H]([C@H]1OC(=O)/C=C/C=C/CCCCC)[C@@H]1O[C@]1(CO)[C@@H](O)[C@]1(O)C(=O)C(C)=C[C@H]12,MT-4,,IIIB,MTT,EC50,0.01593 µM
C=C1CC[C@@H]2[C@](C)(CO)[C@H](O)CC[C@@]2(C)[C@@H]1C/C=C1/C(=O)OC[C@H]1O,C8166,,,cytopathic effect,EC50,2.322 µM
Nc1ccn([C@H]2CC[C@@H](CO)O2)c(=O)n1,MT-4,RTMDR1,RTMDR,MTT,EC50,1.65 µM
CSC(=Nc1cccc(Cl)c1)Nn1c(C)nc2ccccc2c1=O,MT-4,,IIIB,MTT,EC50,1.17 µg/mL
[N-]=[N+]=N[C@H]1C[C@H](CO)SC1n1cnc2c(N)ncnc21,MT-4,,,,EC50,>100 µM
CN=C(Nn1c(C)nc2ccccc2c1=O)SC,MT-4,,IIIB,MTT,EC50,100 µg/mL
CC(C)CCC[C@@H](C)[C@H]1CC[C@H]2[C@@H]3CC[C@H]4CC(=C(c5cc(Cl)c(O)c(C(=O)O)c5)c5cc(Cl)c(O)c(C(=O)O)c5)CC[C@]4(C)[C@H]3CC[C@]12C,PBLC,,WEJO,p24,EC50,59.3 µM
[N-]=[N+]=N[C@H]1C[C@H](CO)S[C@H]1n1cnc2c(Cl)ncnc21,MT-4,,,,EC50,>100 µM
COc1ccc(S(=O)(=O)N(CC(C)C)CC(O)CN(CC(C)C)S(=O)(=O)c2ccccc2)cc1,CEM,,IIIB,p24,EC90,1 µM
C[C@]12CCC3C(CC[C@H]4C[C@@H](CCC=C(c5cc(Cl)c(O)c(C(=O)O)c5)c5cc(Cl)c(O)c(C(=O)O)c5)CC[C@]34C)C1CC[C@@H]2CCC=C(c1cc(Cl)c(O)c(C(=O)O)c1)c1cc(Cl)c(O)c(C(=O)O)c1,MT-4,,RF,cytopathic effect / MTT,EC50,1.3 µM
Nc1nc(=O)n([C@@H]2CC[C@H](CO)O2)cc1F,C8166,,RF,syncytia,EC50,0.043 µM
OCCC#Cc1nc(-c2ccc(F)cc2)c(-c2ccncc2)n1CCCc1ccccc1,PBMC,,Nevirapine resistant N119 Clinical isolate,p24,EC50,1 µM
C=C1CC[C@@H]2[C@](C)(CO)[C@H](O)CC[C@@]2(C)[C@@H]1CC(OC(=O)c1ccc([N+](=O)[O-])cc1)C1CCOC1=O,C8166,,,cytopathic effect,EC50,1.466 µM
Nc1nc(=O)n([C@H]2CC[C@@H](CO)O2)cc1F,C8166,,RF,p24,EC50,0.166 µM
CC[C@]1(CO)O[C@@H](n2cnc3c(=O)[nH]c(N)nc32)C[C@@H]1O,MT-4,,NL4-3,absorbance,EC50,0.006 µM
CNc1ncnc2c1ncn2[C@@H]1S[C@H](CO)C[C@@H]1N=[N+]=[N-],MT-4,,,,EC50,>100 µM
O=C1c2ccccc2N(Cc2ccccc2)S(=O)(=O)N1Cc1ccccc1,MT-4,,IIIB,p24,EC50,20.3 µM
CCCCCCCCCCCCCCCC(=O)Nc1ccn([C@H]2CC[C@@H](COP(=O)(O)O[C@H]3C[C@H](n4cc(C)c(=O)[nH]c4=O)O[C@@H]3CO)O2)c(=O)n1,CEM + CEM-SS,,IIIB,cytopathic effect / XTT,EC50,0.0465 µM
C[C@]12CCC3C(CC[C@H]4C[C@@H](CC=C(c5cc(Cl)c(O)c(C(=O)O)c5)c5cc(Cl)c(O)c(C(=O)O)c5)CC[C@]34C)C1CC[C@@H]2CC=C(c1cc(Cl)c(O)c(C(=O)O)c1)c1cc(Cl)c(O)c(C(=O)O)c1,CEM + CEM-SS,,RF,cytopathic effect / MTT,EC50,12 µM
C=C1[C@H](CO)[C@@H](O)C[C@@H]1n1cnc2c(=O)[nH]c(N)nc21,MT-4,,NL4-3,absorbance,EC50,1.02 µM
Cc1cn([C@H]2S[C@H](CO)C[C@@H]2N=[N+]=[N-])c(=O)[nH]c1=O,MT-4,,,,EC50,>100 µM
CC(C)=CCOc1cc(NC(=S)c2ccoc2C)ccc1Cl,CEM,,IIIB,syncytia,EC50,0.006 µM
COC(=O)Cn1c(=O)c(C)cn([C@@H]2O[C@H](CO[Si](C)(C)C(C)(C)C)[C@@H](O[Si](C)(C)C(C)(C)C)[C@H]2O)c1=O,CEM,,IIIB,syncytia,EC50,>2 µM
O=S1(=O)N=C(OCc2ccccc2)c2ccccc2N1Cc1ccc(Cl)c(Cl)c1,MT-4,,IIIB,p24,EC50,>125 µM
Cc1cn([C@H]2S[C@@H](CO)C[C@@H]2N=[N+]=[N-])c(=O)[nH]c1=O,MT-4,,,,EC50,>100 µM
CC(=O)OCC1=C[C@@H]2C(=O)[C@]3(C=C(C)[C@H](OC(C)=O)[C@@]3(O)[C@@H]1OC(C)=O)[C@H](C)C[C@@H]1[C@H]2C1(C)C,MT-4,Nevirapine resistant,HE,cytopathic effect / MTT,EC50,0.13 µM
Cc1cn([C@@H]2O[C@H](CO[Si](C)(C)C(C)(C)C)[C@@H](O)[C@H]2O[Si](C)(C)C(C)(C)C)c(=O)n(Cc2nn[nH]n2)c1=O,CEM,,IIIB,syncytia,EC50,>10 µM
CNc1ncnc2c1ncn2[C@H]1S[C@H](CO)C[C@@H]1N=[N+]=[N-],MT-4,,,,EC50,>100 µM
COc1c(Cl)cc(C(=CCCCCN[C@H]2CC[C@]3(C)C4CC[C@@]5(C)C(CC[C@@H]5C(C)CCCC(C)C)C4CC[C@H]3C2)c2cc(Cl)c(OC)c(C(=O)O)c2)cc1C(=O)O,MT-4,,IIIB,cytopathic effect / MTT,EC50,>150 µM
CC(C)CN(C[C@H](O)C[C@@H](CNC(C)(C)C)Cc1ccccc1)S(=O)(=O)c1ccccc1,CEM,,IIIB,p24,EC50,<1 µM
O=C1c2ccccc2N(Cc2cccc3ccccc23)S(=O)(=O)N1Cc1ccccc1,CEM + CEM-SS,,IIIB,p24,EC50,>10 µM
CC(C)CN(CCC(O)CN1CCN(Cc2cccnc2)C[C@H]1C(=O)NC(C)(C)C)S(=O)(=O)c1ccccc1,CEM,,IIIB,p24,EC50,<1 µM
Cc1ccc(OCCn2ccc(=O)[nH]c2=O)c(Cc2ccccc2)c1,,Y181C/K103N,,,EC50,0.57 µM
CCCCCCCCCCCCCCCCCCOC(=O)/C=C/c1ccc(O)c(O)c1,,,,cytopathic effect,EC50,0.16 µg/mL
C=CCN=C(Nn1c(C)nc2ccccc2c1=O)SC,MT-4,,IIIB,MTT,EC50,5.77 µg/mL
Cc1cn([C@@H]2S[C@@H](CO)C[C@@H]2N=[N+]=[N-])c(=O)[nH]c1=O,MT-4,,,,EC50,>100 µM
C=C1CC[C@@H]2[C@](C)(CO)[C@H](O)CC[C@@]2(C)[C@@H]1CCC1C(=O)NCC1O,C8166,,,cytopathic effect,EC50,>569 µM
COc1c(Cl)cc(C(=CCCCCN[C@@H]2CC[C@]3(C)C4CC[C@@]5(C)C(CC[C@@H]5C(C)CCCC(C)C)C4CC[C@H]3C2)c2cc(Cl)c(OC)c(C(=O)O)c2)cc1C(=O)O,CEM + CEM-SS,,IIIB,cytopathic effect / MTT,EC50,>150 µM
CNOC(=O)Cn1c(=O)c(C)cn([C@@H]2O[C@H](CO[Si](C)(C)C(C)(C)C)[C@@H](O)[C@H]2O[Si](C)(C)C(C)(C)C)c1=O,MT-4,,IIIB,cytopathic effect / trypan blue,EC50,>10 µM
CCCCCCCCCCCCCCCCOC1O[C@@H](CO)[C@H](O)[C@H](O)[C@@H]1O,TZM-bl,,NL4-3,luciferase,EC50,32.43 µM
[N-]=[N+]=N[C@]1(CO)O[C@@H](n2cnc3c(=O)[nH]c(N)nc32)C[C@@H]1O,MT-4,,NL4-3,absorbance,EC50,0.0005 µM
O=C1c2ccccc2N(CC2CCCCC2)S(=O)(=O)N1Cc1ccccc1,MT-4,,IIIB,p24,EC50,8.5 µM
CNOC(=O)Cn1c(=O)c(C)cn([C@@H]2O[C@H](CO[Si](C)(C)C(C)(C)C)[C@@H](O[Si](C)(C)C(C)(C)C)[C@H]2O)c1=O,CEM,,IIIB,syncytia,EC50,≥10 µM
O=C(O)c1cc(C(=CCC23CC4CC(CC(C4)C2)C3)c2cc(Cl)c(O)c(C(=O)O)c2)cc(Cl)c1O,PBLC,,WEJO,p24,EC50,148 µM
O=S(=O)(c1ccccc1)c1cscc1NCC(O)CN(CC1CCCC1)S(=O)(=O)c1ccccc1,CEM,,IIIB,p24,EC90,1 µM
Cc1cn([C@@H]2O[C@H](CO[Si](C)(C)C(C)(C)C)[C@@H](O)[C@H]2O[Si](C)(C)C(C)(C)C)c(=O)n(CCCCC(=O)O)c1=O,MT-4,,IIIB,cytopathic effect / trypan blue,EC50,≥10 µM